PubChem BioAssay AID504761 | Drosophila RNAi Screening Center – 2011
The deposit covers about 22,000 reagents; this is an unselected part of those with a known target gene and a result. Of all reagents, 116 (0.52%) are marked active. 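Calls depend on retest data that are not deposited; infection was ranked per plate without normalising between plates; the unit of the infection score is not given.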 Raw values are not corrected between plates. Further read-outs or replicates are left out here. Reagent sequences are not shown. The record does not give: the amount of reagent, the time to read-out.

Screen: 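Insect host genes that dengue virus relies on to spread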 (primary screen)
System: D.Mel-2 cells from Drosophila
Reagent: long dsRNA against Drosophila genes
Conditions: infection with dengue virus type 2; dose and infection time not stated
Detection: 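Per well on two replicate plates, imaging gave the percent of cells positive for viral envelope protein, ranked by infection, and a nuclear count of cells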
Reading the numbers: infection score: higher = more virus-infected cells; cell count: higher = more cells in the well
Active means: 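Very low infection ranking in both replicate wells (chance probability at most 0.065), then a retest showing infection dropped 1.5-fold or more at p below 0.05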
Meaning of the calls: active = confirmed: knock-down lowers infection; inactive = not picked or not confirmed

Ppt1 (Palmitoyl-protein thioesterase 1) [DRSC17806]: infection score, replicate 1 = 8.45; cell count, replicate 1 = 5808; call = inactive
CG17380 [DRSC15230]: infection score, replicate 1 = 4.66; cell count, replicate 1 = 7023; call = inactive
Gip (GIP-like) [DRSC18667]: infection score, replicate 1 = 2.36; cell count, replicate 1 = 6780; call = inactive
CG3528 [DRSC00611]: infection score, replicate 1 = 3.98; cell count, replicate 1 = 6483; call = inactive
CG3528 [DRSC26034]: infection score, replicate 1 = 13.2; cell count, replicate 1 = 3856; call = inactive
CG4306 [DRSC10409]: infection score, replicate 1 = 8.16; cell count, replicate 1 = 6645; call = inactive
CG4306 [DRSC28986]: infection score, replicate 1 = 21.8; cell count, replicate 1 = 5854; call = inactive
QIL1 [DRSC10888]: infection score, replicate 1 = 11.6; cell count, replicate 1 = 4511; call = inactive
CG15888 [DRSC15125]: infection score, replicate 1 = 12.4; cell count, replicate 1 = 5746; call = inactive
CG15888 [DRSC26530]: infection score, replicate 1 = 1.03; cell count, replicate 1 = 6044; call = inactive
CG9863 [DRSC28491]: infection score, replicate 1 = 8.28; cell count, replicate 1 = 3006; call = inactive
CG9270 [DRSC03182]: infection score, replicate 1 = 15.7; cell count, replicate 1 = 5805; call = inactive
Ogg1 (8-oxoguanine DNA glycosylase) [DRSC17738]: infection score, replicate 1 = 4.14; cell count, replicate 1 = 6736; call = inactive
U2A [DRSC06445]: infection score, replicate 1 = 5.59; cell count, replicate 1 = 5477; call = inactive
U2A [DRSC28070]: infection score, replicate 1 = 27.1; cell count, replicate 1 = 5480; call = inactive

A stretch taken from the entries so far, as a working copy:
CG3528 [DRSC00611]: infection score, replicate 1 = 3.98; cell count, replicate 1 = 6483; call = inactive
CG3528 [DRSC26034]: infection score, replicate 1 = 13.2; cell count, replicate 1 = 3856; call = inactive
